Pooled drug test results. Numbers come from NIAID ChemDB, via PubChem.

Common to all: growth or infection tests; agent: HIV-1; read by: syncytia; endpoint: EC50

a–b is a range or a potency band. Conditions beyond the fields shown may differ between rows. ECn is the concentration giving n% inhibition of infection, replication or growth.

Cc1cn([C@H]2C[C@H](N=[N+]=[N-])[C@@H](CN3C(=O)c4cccc([N+](=O)[O-])c4C3=O)O2)c(=O)[nH]c1=O ; strain or isolate: IIIB ; cell line: CEM ; result: 6.8 µM
COc1ccc2c(c1)N(C(=O)OC(C)C)[C@@H](CSC)C(=S)N2 ; strain or isolate: IIIB ; cell line: CEM ; result: 0.001 µM
CCc1cc(NCc2nc3c(Cl)ccc(Cl)c3o2)c(=O)[nH]c1C ; strain or isolate: IIIB-TIBO(0.1) ; cell line: CEM ; result: 0.07 µg/mL
Nc1nc(F)nc2c1ncn2[C@H]1CC[C@@H](CO)O1 ; strain or isolate: LAV ; cell line: MT-2 ; result: 9 µM
COC(=O)[C@H](CCCCN)NP(=O)(OC[C@H]1C=C[C@@H](n2cnc3c(N)ncnc32)C1)Oc1ccccc1 ; strain or isolate: IIIB ; cell line: CEM ; result: 25 µM
Cc1ccnc2c1NC(=O)c1cccnc1N2C1CC1 ; mutations: RT-E138K ; cell line: CEM ; result: 0.4 µM
Cc1cn([C@H]2C[C@H](N=[N+]=[N-])[C@@H](CO)O2)c(=O)[nH]c1=O ; strain or isolate: IIIB ; cell line: C8166 ; result: 0.14 µg/mL
O=C(C1CSCN1C(=O)OCc1ccccc1)N1CCSC1 ; strain or isolate: LAV ; cell line: CEM/MOLT-4 ; result: >100 µM
Nc1ccn([C@H]2CC[C@@H](CO)O2)c(=O)n1 ; strain or isolate: LAV-1 ; cell line: HT4 + HT4-6C ; result: <0.1 µM
Nc1ncnc2c1ncn2CCOCP(=O)(O)O ; mutations: RT-Y181C ; strain or isolate: IIIB-Nevirapine(0.1)(RT-Y181C) ; cell line: CEM ; result: 8.5 µM
Cc1cn([C@H]2C[C@H](N=[N+]=[N-])[C@@H](CO)O2)c(=O)[nH]c1=O ; mutations: RT-M41L L210W T215Y ; strain or isolate: Q252-2 Clinical isolate ZDV-resistant ; cell line: HT4 + HeLa ; result: 2.8 µM
Cc1cn([C@H]2C[C@H](N=[N+]=[N-])[C@@H](CN3C(=O)c4c(Cl)c(Cl)c(Cl)c(Cl)c4C3=O)O2)c(=O)[nH]c1=O ; strain or isolate: IIIB ; cell line: CEM ; result: 2.6 µM
C[C@H](Cn1cnc2c(N)ncnc21)OCP(=O)(O)O ; strain or isolate: IIIB ; cell line: CEM ; result: 1.2 µM
Cc1cn([C@H]2C[C@H](F)[C@@H](CP(=O)(O)O)O2)c(=S)[nH]c1=O ; cell line: PBMC ; result: 0.5 µM
CC(=N)CCNC(=O)c1cc(NC(=O)c2cc(NC(=O)c3cc(NP(=O)(OC[C@@H]4C=C[C@H](n5cc(C)c(=O)[nH]c5=O)O4)OC4CCCCC4)cn3C)cn2C)cn1C ; cell line: CEM/TK- ; result: 0.77 µM
Nc1nc(N)c(C=O)c(OCCOCP(=O)(O)O)n1 ; strain or isolate: IIIB ; cell line: CEM ; result: 4.5 µM
CC1(C)S[C@@H]2[C@H](NC(=O)Cc3ccccc3)C(=O)N2[C@H]1C(=O)NCCNC(=O)[C@@H]1N2C(=O)[C@@H](NC(=O)Cc3ccccc3)[C@H]2SC1(C)C ; strain or isolate: RF ; cell line: MT-4 ; result: >100 µM
CC(C)=CCOc1cc(NC(=S)c2ccoc2C)ccc1Cl ; strain or isolate: IIIB ; cell line: CEM ; result: 0.001 µg/mL
O=c1[nH]c(Cl)nc2c1ncn2[C@H]1CC[C@@H](CO)O1 ; strain or isolate: LAV ; cell line: MT-2 ; result: >20 µM
CC(C)=CCOc1cc(NC(=S)c2ccsc2C)ccc1Cl ; strain or isolate: IIIB ; cell line: CEM ; result: 0.002 µg/mL
C[C@H](Cn1cnc2c(N)ncnc21)OCP(=O)(O)O ; strain or isolate: IIIB ; cell line: CEM ; result: 1 µg/mL
COc1c(O)c(Cl)c2c(c1OC)-c1c(c(Cl)c(O)c(OC)c1OC)C[C@H](C)[C@H](C)C2 ; strain or isolate: IIIB ; cell line: SupT1 + Sup-T1 ; result: 1.52 µM
CCCCCCCCCCCCCCCCCCCCCCOC[C@H](CO[C@]1(C(=O)O)C[C@H](OS(=O)(=O)O)[C@@H](NC(C)=O)[C@H]([C@H](OS(=O)(=O)O)[C@@H](COS(=O)(=O)O)OS(=O)(=O)O)O1)OCCCCCCCCCCCCCCCCCCCCCC ; strain or isolate: IIIB ; cell line: H9 ; result: 1 µM
Nc1cc(Cl)nc(SCc2ccccc2)n1 ; strain or isolate: IIIB ; cell line: MT-2 ; result: 0.4–4 µM
Cc1ccnc2c1NC(=O)c1cccnc1N2C1CC1 ; mutations: RT-L100I ; strain or isolate: IIIB-BHAP)(0.1)(RT-L100I ; cell line: CEM ; result: 0.06 µg/mL
CCc1cc(NCc2nc3c(Cl)ccc(Cl)c3o2)c(=O)[nH]c1C ; strain or isolate: MN ; cell line: H9 ; result: 0.03 µM
Cc1cn([C@H]2C[C@H](N=[N+]=[N-])[C@@H](CN3C(=O)c4ccc(C(=O)OCC56CC7CC(CC(C7)C5)C6)cc4C3=O)O2)c(=O)[nH]c1=O ; strain or isolate: IIIB ; cell line: CEM ; result: 0.06 µM
Cc1cn([C@H]2C=C[C@@H](COP(=O)(Nc3cc(C(=O)Nc4cc(C(=O)NCCC(=N)N)n(C)c4)n(C)c3)OC(C)C)O2)c(=O)[nH]c1=O ; cell line: CEM/TK- ; result: 2.01 µM
Cc1ccnc2c1NC(=O)c1cccnc1N2C1CC1 ; mutations: RT-L100I ; strain or isolate: IIIB BHAP(RT-L100I) ; cell line: CEM ; result: 0.04 µg/mL
CN=C1N(C)C(=O)OC12[C@@H](CO[Si](C)(C)C(C)(C)C)O[C@@H](n1cc(C)c(=O)n(C)c1=O)[C@@H]2O[Si](C)(C)C(C)(C)C ; strain or isolate: IIIB ; cell line: CEM ; result: ≥35 µM
CN1N=C(N)c2cn([C@@H]3O[C@H](COP(=O)(O)O)[C@@H](O)[C@H]3O)c3ncnc1c23 ; strain or isolate: IIIB ; result: 0.01 µM
CCCc1cc(=O)oc2c3c(c4c(c12)OC(C)(C)C=C4)O[C@@H](C)[C@H](C)[C@@H]3O ; strain or isolate: RF ; cell line: CEM + CEM-SS ; result: 0.19 µM
Cc1cn([C@H]2C[C@H](N=[N+]=[N-])[C@@H](CO)O2)c(=O)[nH]c1=O ; mutations: RT-Y181C ; strain or isolate: IIIB-Nevirapine(0.1)(RT-Y181C) ; cell line: CEM ; result: 0.002 µM
O=C1CN=C(c2ccc[nH]2)c2cc(Cl)ccc2N1 ; strain or isolate: IIIB/LAI ; cell line: HUT-78/IIIB/LAI + HUT 78 ; result: >1 µM
Nc1ccn([C@H]2CC[C@@H](CO)O2)c(=O)n1 ; strain or isolate: IIIB ; cell line: CEM/dCK- + CEM ; result: 20 µM
Cc1cccc(N2C(=O)CS[C@@H]2c2c(Br)cccc2Br)n1 ; strain or isolate: IIIB ; cell line: MT-4 ; result: 0.22 µM
Nc1nc(Cl)nc2c1ncn2[C@H]1CC[C@@H](CO)O1 ; strain or isolate: LAV ; cell line: MT-2 ; result: 10 µM
Cc1cn([C@H]2CC(SSC(Cl)(Cl)Cl)[C@@H](CO)O2)c(=O)[nH]c1=O ; strain or isolate: IIIB ; cell line: CEM ; result: <25 µM
CCN1C(=O)N(Cc2cccc(Cl)c2)S(=O)(=O)c2cscc21 ; strain or isolate: IIIB ; cell line: MT-4 ; result: 2.5 µM
O=c1[nH]cnc2c1ncn2[C@H]1CC[C@@H](CO)O1 ; strain or isolate: IIIB ; cell line: CEM ; result: 2.3 µM
C=C1CC23CCC4[C@@](C)(CCC[C@@]4(C)C(=O)O)C2CC[C@H]1C3 ; strain or isolate: MC99 (Tat/Rev defective) ; cell line: 1A2 ; result: 13.7 µg/mL
Cc1cn([C@H]2C[C@H](N=[N+]=[N-])[C@@H](COP(=O)(Nc3cc(C(=O)NCCC(=N)N)n(C)c3)OC3CCCCC3)O2)c(=O)[nH]c1=O ; cell line: CEM/TK- ; result: 0.133 µM
Cc1cn([C@H]2C[C@H](N=[N+]=[N-])[C@@H](CN3C(=O)c4ccccc4C3=O)O2)c(=O)[nH]c1=O ; strain or isolate: IIIB ; cell line: CEM ; result: 1.4 µM
C[C@@H]1c2[nH]c(N)nc2[C@@]2(O)C[C@@H]1C1C(c3cnc(-c4c[nH]c5cc(Br)ccc45)c(=O)[nH]3)=CNC1C2=O ; cell line: MT-4 ; result: 0.91 µM
Cc1cn([C@H]2C=C[C@@H](COP(=O)(Nc3cc(C(=O)NCCC(=N)N)n(C)c3)OC(C)C)O2)c(=O)[nH]c1=O ; cell line: CEM/TK- ; result: 2.13 µM
N#CCN1C(=O)N(Cc2ccccc2)S(=O)(=O)c2cscc21 ; strain or isolate: NDK ; cell line: MT-4 ; result: 6 µM
Nc1ncnc2c1ncn2[C@H]1CC[C@@H](CO)O1 ; strain or isolate: IIIB ; cell line: MT-2 ; result: 0.2 µM
O=C(C1CCCN1C(=O)OCc1ccccc1)N1CCCCC1 ; strain or isolate: LAV ; cell line: CEM/MOLT-4 ; result: >1000 µM
Cc1cn([C@H]2C[C@H](N=[N+]=[N-])[C@@H](CO)O2)c(=O)[nH]c1=O ; strain or isolate: IIIB ; cell line: C8166 ; result: <0.2 µg/mL
Cc1cn([C@H]2C=C[C@@H](CO)O2)c(=O)[nH]c1=O ; cell line: CEM/TK- ; result: 57.8 µM
CC(C)=CCc1cc(-c2coc3cc(O)cc(O)c3c2=O)cc(O)c1O ; cell line: MOLT-4/OKM-1(HIV-1) + MOLT-4 ; result: <20 µg/mL
CCCc1cc(=O)oc2c3c(c4c(c12)OC(C)(C)CC4)O[C@@H](C)[C@H](C)[C@@H]3O ; strain or isolate: RF ; cell line: CEM + CEM-SS ; result: 0.14 µM
Cc1cn([C@H]2C[C@H](N=[N+]=[N-])[C@@H](CN3C(=S)c4ccccc4C3=S)O2)c(=O)[nH]c1=O ; strain or isolate: IIIB ; cell line: CEM ; result: 1.7 µM
CCc1cc(NCc2nc3c(Cl)ccc(Cl)c3o2)c(=O)[nH]c1C ; strain or isolate: IIIB ; cell line: CEM ; result: 0.007 µg/mL
CC(C)C[C@H](NC(=O)[C@H](CC(=O)O)NC(=O)[C@@H](N)Cc1ccc(O)cc1)C(=O)N[C@@H](CC(=O)O)C(=O)N[C@@H](Cc1ccc(O)cc1)C(=O)N[C@@H](Cc1ccc(O)cc1)C(=O)O ; strain or isolate: GUN1 ; cell line: C8166 ; result: <200 µg/mL
Nc1ccn([C@H]2CC[C@@H](CO)O2)c(=O)n1 ; mutations: RT-K65R ; strain or isolate: Clone ddC-resistant RT K65R ; cell line: MT-4 ; result: 0.161 µM
CC(C)=CCN1Cc2cc(Cl)cc3[nH]c(=S)n(c23)C[C@@H]1C ; mutations: RT-Y181C ; strain or isolate: IIIB PYR(RT-Y181C) ; cell line: CEM ; result: 2 µg/mL
O=c1[nH]cnc2c1ncn2[C@H]1CC[C@@H](CO)O1 ; strain or isolate: IIIB ; cell line: CEM ; result: 5 µM
CCOCn1c(Sc2ccccc2)c(CC)c(=O)[nH]c1=S ; mutations: RT-Y188H ; strain or isolate: IIIB HEPT-resistant (RT Y188H) ; cell line: CEM ; result: ≥20 µg/mL
CCN1C(=O)N(Cc2ccccc2Cl)S(=O)(=O)c2cscc21 ; mutations: RT-D67N K70R T215F K219Q ; strain or isolate: ADP/141 ; cell line: MT-4 ; result: 5 µM
CC(C)Nc1cccnc1N1CCN(C(=O)c2cc3cc(NS(C)(=O)=O)ccc3[nH]2)CC1 ; strain or isolate: IIIB ; cell line: CEM ; result: 0.009 µM
CCOCn1c(Cc2cc(C)cc(C)c2)c(CC)c(=O)[nH]c1=O ; mutations: RT-Y188H ; strain or isolate: IIIB HEPT-resistant (RT Y188H) ; cell line: CEM ; result: 0.65 µg/mL
Cc1cn([C@H]2C[C@H](N=[N+]=[N-])[C@@H](CO)O2)c(=O)[nH]c1=O ; cell line: CEM ; result: 0.031 µM
Cc1cn([C@H]2C[C@H](N=[N+]=[N-])[C@@H](CO)O2)c(=O)[nH]c1=O ; strain or isolate: GB8 ; cell line: JM ; result: >100 µM
C=C1[C@H]2CCC3C(CCC4[C@@]3(C)CCC[C@@]4(C)C(=O)O)(C2)[C@@H]1O ; strain or isolate: MC99 (Tat/Rev defective) ; cell line: 1A2 ; result: 33.9 µg/mL
Cc1cn([C@H]2C[C@H](N=[N+]=[N-])[C@@H](COP(=O)(Nc3cc(C(=O)Nc4cc(C(=O)Nc5cc(C(=O)NCCC#N)n(C)c5)n(C)c4)n(C)c3)OC3CCCCC3)O2)c(=O)[nH]c1=O ; cell line: CEM ; result: 0.011 µM

The first 7 rows once more:

Cc1cn([C@H]2C[C@H](N=[N+]=[N-])[C@@H](CN3C(=O)c4cccc([N+](=O)[O-])c4C3=O)O2)c(=O)[nH]c1=O ; strain or isolate: IIIB ; cell line: CEM ; result: 6.8 µM
COc1ccc2c(c1)N(C(=O)OC(C)C)[C@@H](CSC)C(=S)N2 ; strain or isolate: IIIB ; cell line: CEM ; result: 0.001 µM
CCc1cc(NCc2nc3c(Cl)ccc(Cl)c3o2)c(=O)[nH]c1C ; strain or isolate: IIIB-TIBO(0.1) ; cell line: CEM ; result: 0.07 µg/mL
Nc1nc(F)nc2c1ncn2[C@H]1CC[C@@H](CO)O1 ; strain or isolate: LAV ; cell line: MT-2 ; result: 9 µM
COC(=O)[C@H](CCCCN)NP(=O)(OC[C@H]1C=C[C@@H](n2cnc3c(N)ncnc32)C1)Oc1ccccc1 ; strain or isolate: IIIB ; cell line: CEM ; result: 25 µM
Cc1ccnc2c1NC(=O)c1cccnc1N2C1CC1 ; mutations: RT-E138K ; cell line: CEM ; result: 0.4 µM
Cc1cn([C@H]2C[C@H](N=[N+]=[N-])[C@@H](CO)O2)c(=O)[nH]c1=O ; strain or isolate: IIIB ; cell line: C8166 ; result: 0.14 µg/mL